Experimental data published in PMC9270327 (Communications Biology, 2022).
pIC50, pKi: −log10 of the molar value. Where two headings read alike, the source gives them in different places.

Amino acid sequences for entries named in this document (tags omitted). Residues count along the entry.
UniProt Q9Y5Y6, whole entry: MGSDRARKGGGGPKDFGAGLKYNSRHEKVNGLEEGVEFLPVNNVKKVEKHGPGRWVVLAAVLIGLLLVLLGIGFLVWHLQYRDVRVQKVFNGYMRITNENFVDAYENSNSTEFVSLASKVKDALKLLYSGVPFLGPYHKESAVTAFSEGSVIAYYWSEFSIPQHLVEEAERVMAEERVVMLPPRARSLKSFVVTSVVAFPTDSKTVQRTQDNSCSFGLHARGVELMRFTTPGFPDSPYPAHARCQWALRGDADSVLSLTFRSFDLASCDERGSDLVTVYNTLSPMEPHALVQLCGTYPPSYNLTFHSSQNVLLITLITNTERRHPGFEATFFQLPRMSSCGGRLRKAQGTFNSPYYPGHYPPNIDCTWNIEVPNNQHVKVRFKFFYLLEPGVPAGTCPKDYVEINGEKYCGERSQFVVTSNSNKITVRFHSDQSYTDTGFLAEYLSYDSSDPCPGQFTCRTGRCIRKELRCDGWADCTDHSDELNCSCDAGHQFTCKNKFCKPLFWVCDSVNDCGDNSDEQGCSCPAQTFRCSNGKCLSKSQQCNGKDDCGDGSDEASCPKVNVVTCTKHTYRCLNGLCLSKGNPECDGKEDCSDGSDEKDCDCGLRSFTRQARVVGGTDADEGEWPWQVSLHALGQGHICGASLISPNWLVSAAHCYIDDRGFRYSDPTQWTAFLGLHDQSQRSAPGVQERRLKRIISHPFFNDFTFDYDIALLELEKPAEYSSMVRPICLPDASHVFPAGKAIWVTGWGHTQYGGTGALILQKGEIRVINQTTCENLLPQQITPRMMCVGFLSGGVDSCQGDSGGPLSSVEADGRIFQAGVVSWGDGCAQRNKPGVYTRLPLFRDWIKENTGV
UniProt P00742, 235-488 limits assumed: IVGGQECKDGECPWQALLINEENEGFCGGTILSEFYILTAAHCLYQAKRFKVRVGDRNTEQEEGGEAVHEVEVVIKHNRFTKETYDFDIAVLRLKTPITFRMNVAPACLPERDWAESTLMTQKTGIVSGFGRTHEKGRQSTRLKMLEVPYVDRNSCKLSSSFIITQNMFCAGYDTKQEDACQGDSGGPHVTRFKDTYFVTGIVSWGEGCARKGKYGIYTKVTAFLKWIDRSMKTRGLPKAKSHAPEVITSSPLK
UniProt P00742, 41-179 partner limits assumed: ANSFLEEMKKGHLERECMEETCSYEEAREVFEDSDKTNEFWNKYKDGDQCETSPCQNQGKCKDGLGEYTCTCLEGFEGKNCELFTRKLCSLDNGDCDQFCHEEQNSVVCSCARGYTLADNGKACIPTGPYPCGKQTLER
UniProt O15393, whole entry: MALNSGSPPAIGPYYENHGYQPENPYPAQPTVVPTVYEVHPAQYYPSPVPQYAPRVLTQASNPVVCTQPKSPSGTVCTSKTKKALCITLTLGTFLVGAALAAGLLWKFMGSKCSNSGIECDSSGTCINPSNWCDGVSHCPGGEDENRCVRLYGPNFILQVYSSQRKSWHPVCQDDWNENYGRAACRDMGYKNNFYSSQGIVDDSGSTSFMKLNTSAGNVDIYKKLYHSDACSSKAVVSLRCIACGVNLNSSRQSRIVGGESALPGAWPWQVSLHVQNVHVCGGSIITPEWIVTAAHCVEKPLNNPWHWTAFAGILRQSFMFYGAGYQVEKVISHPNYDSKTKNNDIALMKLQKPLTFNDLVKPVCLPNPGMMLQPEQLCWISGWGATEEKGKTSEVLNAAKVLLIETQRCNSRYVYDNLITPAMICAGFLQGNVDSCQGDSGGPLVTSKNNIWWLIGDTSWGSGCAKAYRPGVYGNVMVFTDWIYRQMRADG

Key:
[1] = target: recombinant human matriptase (Homo sapiens, UniProt Q9Y5Y6); test: Enzyme inhibition assay with purified matriptase (Ki, dose-response); assay type: biochemical; details: for pKi: read-out: Ki Matriptase, 30 min preincubation, substrate Boc-Gln-Ala-Arg-AMC; for Selectivity index Matriptase: quotient Ki matriptase / Ki TMPRSS2
[2] = target: recombinant human thrombin (Homo sapiens, UniProt P00734); test: Enzyme inhibition assay with purified thrombin (Ki, dose-response); assay type: biochemical; details: for Selectivity index Thrombin: quotient Ki thrombin / Ki TMPRSS2; for pKi: read-out: Ki Thrombin, 30 min preincubation, substrate D-Phe-Homopro-Arg-pNA
factor Xa = factor Xa (Homo sapiens, UniProt P00742); test: Enzyme inhibition assay with purified factor Xa (Ki, dose-response); assay type: biochemical; details: for factor Xa activity, Mean (Fig. 2d): normalized, 0 nM = 100; for Selectivity index Factor Xa: quotient Ki factor Xa / Ki TMPRSS2; for pKi: read-out: Ki Factor Xa, 30 min preincubation, substrate Bz-Ile-Glu-Gly-Arg-pNA
[3] = test system: lentiviral pseudoparticles carrying SARS-CoV-2 Wuhan-Hu-1 spike, Caco-2 cells; test: Pseudovirus inhibition assay, wild-type (Wuhan-Hu-1) spike; details: for SARS-CoV-2 spike driven entry, Mean (0 nM = 100): Fig. 5a, Wuhan-Hu-1 spike pseudoparticles; for pIC50: read-out: IC50 pseudotyped lentivirus Wuhan-Hu-1, Caco-2 cells, luciferase 2 days post transduction
[4] = test system: SARS-CoV-2 Wuhan-Hu-1, Caco-2 cells; test: SARS-CoV-2 inhibition assay, Wuhan-Hu-1 (in-cell ELISA); details: for SARS-CoV-2 infection, Mean (0 nM = 100): Fig. 6a, Wuhan-Hu-1; for pIC50: read-out: IC50 SARS-CoV-2 Wuhan-Hu-1, Caco-2 cells, in-cell ELISA 2 days post infection
TMPRSS2 = TMPRSS2 (Homo sapiens, UniProt O15393); details: for TMPRSS2 activity, Mean (Fig. 2a): normalized, 0 nM = 100; for pKi: read-out: Ki TMPRSS2, 30 min preincubation, substrate Boc-Gln-Ala-Arg-AMC, Ki from IC50 by Cheng–Prusoff

| SMILES | pKi [1] | Selectivity index Matriptase [1] | pKi [2] | factor Xa activity, Mean (Fig. 2d) (factor Xa; 0.04 nM) | factor Xa activity, Mean (Fig. 2d) (factor Xa; 0.2 nM) | factor Xa activity, Mean (Fig. 2d) (factor Xa; 2 nM) | factor Xa activity, Mean (Fig. 2d) (factor Xa; 20 nM) | factor Xa activity, Mean (Fig. 2d) (factor Xa; 200 nM) | factor Xa activity, Mean (Fig. 2d) (factor Xa; 10000 nM) | Selectivity index Factor Xa (factor Xa) | pKi (factor Xa) | SARS-CoV-2 spike driven entry, Mean (0 nM = 100) ([3]; compound 32 nM) | SARS-CoV-2 spike driven entry, Mean (0 nM = 100) ([3]; compound 160 nM) | SARS-CoV-2 spike driven entry, Mean (0 nM = 100) ([3]; compound 800 nM) | SARS-CoV-2 spike driven entry, Mean (0 nM = 100) ([3]; compound 4000 nM) | SARS-CoV-2 spike driven entry, Mean (0 nM = 100) ([3]; compound 20000 nM) | SARS-CoV-2 infection, Mean (0 nM = 100) ([4]; compound 32 nM) | SARS-CoV-2 infection, Mean (0 nM = 100) ([4]; compound 160 nM) | SARS-CoV-2 infection, Mean (0 nM = 100) ([4]; compound 800 nM) | SARS-CoV-2 infection, Mean (0 nM = 100) ([4]; compound 4000 nM) | also measured |
| --- | --- | --- | --- | --- | --- | --- | --- | --- | --- | --- | --- | --- | --- | --- | --- | --- | --- | --- | --- | --- | --- |
| CC(=O)N[C@@H](CCCNC(=N)N)C(=O)N1CCC[C@H]1C(=O)N[C@H](CCCNC(=N)N)C(=O)c1nc2ccccc2s1 | 9.05 |  |  |  |  |  |  |  |  |  |  |  |  |  |  |  |  |  |  |  |  |
| CC(=O)N[C@H](CCCNC(=N)N)C(=O)N1CCC[C@H]1C(=O)NC(CCCNC(=N)N)C(=O)c1nc2ccccc2s1 (stereo partly drawn) | 8.77 | 0.02 | 5.68 | 111.644 | 99.8476 | 73.2113 | 29.8323 | 14.9163 | 11.1111 | 0.05 | 8.39 | 78.723 | 80.304 | 56.218 | 38.324 | 7.149 | 97.3498 | 98.8884 | 101.772 | 107.393 | selectivity for matriptase (over TMPRSS2) [1]: ~ 51 fold; Selectivity index Thrombin [2]: 24; factor Xa activity, Mean (Fig. 2d) (factor Xa; 0.02 nM): 114.307; factor Xa activity, Mean (Fig. 2d) (factor Xa; 100000 nM): 5.175; pIC50 [3]: 5.92; SARS-CoV-2 infection, Mean (0 nM = 100) ([4]; compound 20000 nM): 38.1857; pIC50 [4]: 4.72; TMPRSS2 activity, Mean (Fig. 2a) (TMPRSS2; 0.05 nM): 103.987; TMPRSS2 activity, Mean (Fig. 2a) (TMPRSS2; 0.5 nM): 106.22; TMPRSS2 activity, Mean (Fig. 2a) (TMPRSS2; 5 nM): 106.858; TMPRSS2 activity, Mean (Fig. 2a) (TMPRSS2; 50 nM): 82.6156; TMPRSS2 activity, Mean (Fig. 2a) (TMPRSS2; 500 nM): 26.3158; TMPRSS2 activity, Mean (Fig. 2a) (TMPRSS2; 5000 nM): 3.509; TMPRSS2 activity, Mean (Fig. 2a) (TMPRSS2; 50000 nM): 0.1595; TMPRSS2 activity, Mean (Fig. 2a) (TMPRSS2; 500000 nM): 0.1595; pKi (TMPRSS2): 7.06 |
| CC(=O)N[C@H](CCCNC(=N)N)C(=O)N1CCCC[C@H]1C(=O)NC(CCCNC(=N)N)C(=O)c1nc2ccccc2s1 (stereo partly drawn) | 7.12 | 1.1 | < 4.30 | 103.976 | 102.585 | 94.8313 | 97.0174 | 61.6292 | 26.2426 | 6.6 | 6.33 | 83.6765 | 86.282 | 83.5365 | 76.3675 | 35.339 | 92.1368 | 91.3329 | 91.1132 | 95.0286 | Selectivity index Thrombin [2]: > 699; SARS-CoV-2 infection, Mean (0 nM = 100) ([4]; compound 20000 nM): 71.5878; pIC50 [4]: < 4.00; TMPRSS2 activity, Mean (Fig. 2a) (TMPRSS2; 0.05 nM): 96.4874; TMPRSS2 activity, Mean (Fig. 2a) (TMPRSS2; 0.5 nM): 92.0966; TMPRSS2 activity, Mean (Fig. 2a) (TMPRSS2; 5 nM): 92.5357; TMPRSS2 activity, Mean (Fig. 2a) (TMPRSS2; 50 nM): 77.2777; TMPRSS2 activity, Mean (Fig. 2a) (TMPRSS2; 500 nM): 26.4544; TMPRSS2 activity, Mean (Fig. 2a) (TMPRSS2; 5000 nM): 2.634; TMPRSS2 activity, Mean (Fig. 2a) (TMPRSS2; 50000 nM): 0.3293; TMPRSS2 activity, Mean (Fig. 2a) (TMPRSS2; 500000 nM): -0.8782; pKi (TMPRSS2): 7.15 |
| CC(=O)N[C@H](CCCNC(=N)N)C(=O)N[C@H](C(=O)NC(CCCNC(=N)N)C(=O)c1nc2ccccc2s1)[C@@H](C)O (stereo partly drawn) | 6.80 | 0.7 | < 4.30 | 109.206 | 106.498 | 117.148 | 107.582 | 91.154 | 13.7184 | 4.5 | 6.02 | 87.6125 | 81.262 | 81.4485 | 62.251 | 24.318 | 95.2974 | 99.2923 | 101.216 | 99.5295 | factor Xa activity, Mean (Fig. 2d) (factor Xa; 0.02 nM): 106.859; factor Xa activity, Mean (Fig. 2d) (factor Xa; 100000 nM): 8.123; pIC50 [3]: 5.25; SARS-CoV-2 infection, Mean (0 nM = 100) ([4]; compound 20000 nM): 64.5689; pIC50 [4]: 4.61; TMPRSS2 activity, Mean (Fig. 2a) (TMPRSS2; 0.05 nM): 98.7678; TMPRSS2 activity, Mean (Fig. 2a) (TMPRSS2; 0.5 nM): 95.9242; TMPRSS2 activity, Mean (Fig. 2a) (TMPRSS2; 5 nM): 93.9336; TMPRSS2 activity, Mean (Fig. 2a) (TMPRSS2; 50 nM): 87.3934; TMPRSS2 activity, Mean (Fig. 2a) (TMPRSS2; 500 nM): 52.3223; TMPRSS2 activity, Mean (Fig. 2a) (TMPRSS2; 5000 nM): 9.668; TMPRSS2 activity, Mean (Fig. 2a) (TMPRSS2; 50000 nM): 0.5687; TMPRSS2 activity, Mean (Fig. 2a) (TMPRSS2; 500000 nM): -1.896e-7; pKi (TMPRSS2): 6.67 |
| CC(=O)N[C@@H](CCCNC(=N)N)C(=O)N1CCC[C@H]1C(=O)N[C@@H](CCCNC(=N)N)C(=O)c1nc2ccccc2s1 | 8.21 |  |  |  |  |  |  |  |  |  |  |  |  |  |  |  |  |  |  |  |  |
| CC(=O)N[C@H](Cc1c[nH]cn1)C(=O)N1CCC[C@H]1C(=O)NC(CCCNC(=N)N)C(=O)c1nc2ccccc2s1 (stereo partly drawn) | 7.85 | 1.5 | 5.39 | 92.1132 | 96.2801 | 100.447 | 98.8093 | 77.3813 | 11.3095 | 29.8 | 6.57 | 105.501 | 95.759 | 83.4395 | 44.4825 | 9.5185 | 103.059 | 104.757 | 105.293 | 90.3664 | Selectivity index Thrombin [2]: 449; factor Xa activity, Mean (Fig. 2d) (factor Xa; 0.02 nM): 104.019; factor Xa activity, Mean (Fig. 2d) (factor Xa; 100000 nM): 11.0119; SARS-CoV-2 spike driven entry, Mean (0 nM = 100) ([3]; compound 100000 nM): 2.14; pIC50 [3]: 5.49; SARS-CoV-2 infection, Mean (0 nM = 100) ([4]; compound 20000 nM): 28.2625; SARS-CoV-2 infection, Mean (0 nM = 100) ([4]; compound 100000 nM): -0.3568; pIC50 [4]: 4.90; TMPRSS2 activity, Mean (Fig. 2a) (TMPRSS2; 0.05 nM): 92.713; TMPRSS2 activity, Mean (Fig. 2a) (TMPRSS2; 0.5 nM): 90.8072; TMPRSS2 activity, Mean (Fig. 2a) (TMPRSS2; 5 nM): 77.0179; TMPRSS2 activity, Mean (Fig. 2a) (TMPRSS2; 50 nM): 35.2018; TMPRSS2 activity, Mean (Fig. 2a) (TMPRSS2; 500 nM): 5.269; TMPRSS2 activity, Mean (Fig. 2a) (TMPRSS2; 5000 nM): -0.1121; TMPRSS2 activity, Mean (Fig. 2a) (TMPRSS2; 50000 nM): 4.484e-8; TMPRSS2 activity, Mean (Fig. 2a) (TMPRSS2; 500000 nM): -2.018; pKi (TMPRSS2): 8.04 |
